Measured values from several laboratories, pooled; numbers as filed in NIAID ChemDB.

All rows: tests in culture; agent: HIV-1; cells: MT-4; read-out: EC50

Blank or dashed fields: not listed here. ECn: concentration that inhibits the pathogen or its effect by n%. Neighbouring rows are from separate reports.

SMILES,strain or isolate,changes,read by,result
O=C(Cc1ccc(Cl)cc1)OCC1Nc2ccccc2S(=O)(=O)n2cccc21,IIIB,-,cytopathic effect / MTT,72 µM
CC1=C(C)[C@](CO)(c2ccccc2)C[C@H]1n1ccc(N)nc1=O,-,-,cytopathic effect,>100 µg/mL
O=[N+]([O-])c1ccc(CN2CCC(N=C3C=C(Cc4cccc5ccccc45)NS(=O)(=O)N3)CC2)cc1,IIIB,-,MTT,25.26 µM
CC(C)(C)NC(=O)[C@@H]1CN(Cc2cccnc2)CCN1C[C@@H](O)C[C@@H](Cc1ccccc1)C(=O)N[C@H]1c2ccccc2C[C@H]1O,NL4-3,-,cytopathic effect / MTT,0.041 µM
Nc1ccn(CCOCP(=O)(O)O)c(=O)n1,IIIB,-,cytopathic effect / trypan blue,>125 µM
Cc1cn([C@@H]2O[C@H](CO[Si](C)(C)C(C)(C)C)C3(OS(=O)(=O)C=C3N)[C@H]2O)c(=O)[nH]c1=O,HE,-,cytopathic effect / trypan blue,>40 µM
Cc1cc(C#N)cc(C)c1Oc1nc(Nc2ccc(C#N)cc2)nc(N)c1Br,RES056,RT-K103N Y181C,MTT,0.025 µM
O=C1c2cccn2S(=O)(=O)c2ccccc2N1Cc1ccccc1,IIIB,-,cytopathic effect / MTT,>300 µM
CC(C)CN(C[C@@H](O)[C@H](Cc1ccccc1)NC(=O)O[C@H]1CCOC1)S(=O)(=O)c1ccc(N)cc1,NL4-3,PR-D30N,p24,<0.02 µM
CCN1C(=O)C(C)N(CC=C(C)C)S(=O)(=O)c2cc(Cl)ccc21,IIIB,-,cytopathic effect / MTT,>62 µM
Cc1cn(C[C@@H](CO)OCP(=O)(O)O)c(=O)[nH]c1=O,IIIB,-,cytopathic effect / trypan blue,>250 µM
CC(C)=CCN1Cc2cc(Cl)cc3[nH]c(=S)n(c23)C(=O)C1C,-,-,cytopathic effect / MTT,>50 µM
CC(C)CN(C[C@@H](O)[C@H](Cc1ccccc1)NC(=O)O[C@H]1CCOC1)S(=O)(=O)c1ccc(N)cc1,NL4-3 WT,-,cytopathic effect / MTT,0.031 µM
C=C(C)CN1Cc2cc(Cl)ccc2NC(=O)[C@@H]1C,-,-,cytopathic effect / MTT,>100 µM
Nc1ncnc2c1ncn2[C@@H]1C=C(CO)[C@@H](O)[C@H]1O,IIIB,-,cytopathic effect / trypan blue,>0.016 µg/mL
Nc1nc(Nc2ccccc2)c2ncn(CCOCP(=O)(O)O)c2n1,IIIB,-,cytopathic effect / MTT,56.3 µg/mL
CC1NS(=O)(=O)c2cc(Cl)ccc2NC1=O,IIIB,-,cytopathic effect / MTT,>200 µM
Nc1nc(N)c2ncn(CCOCP(=O)(O)O)c2n1,IIIB,-,cytopathic effect / trypan blue,1 µM
CC(C)Nc1cccnc1N1CCN(C(=O)c2cc3cc(NS(C)(=O)=O)ccc3[nH]2)CC1,RES056,RT-K103N Y181C,MTT,>43.81 µM
CC(C)=CCN1C(=O)c2cccn2S(=O)(=O)c2cc(Cl)ccc21,IIIB,-,cytopathic effect / MTT,129 µM
O=C1c2cccn2-c2ccc(Cl)cc2S(=O)(=O)N1C1CC1,IIIB,-,cytopathic effect / MTT,15 µM
O=C(CN1C(=O)c2cccn2S(=O)(=O)c2ccccc21)OCc1ccccc1,IIIB,-,cytopathic effect / MTT,>300 µM
CC(C)(C)NC(=O)[C@@H]1CN(Cc2cccnc2)CCN1C[C@@H](O)C[C@@H](Cc1ccccc1)C(=O)N[C@H]1c2ccccc2C[C@H]1O,NL4-3 B,-,cytopathic effect / MTT,0.0073 µM
NC(N)=NCCC[C@H](N)C(=O)NC[C@@H]1OC(O[C@H]2[C@@H](O)[C@H](O[C@@H]3[C@@H](O)[C@H](NC(=O)[C@@H](N)CCCN=C(N)N)C[C@H](NC(=O)[C@@H](N)CCCN=C(N)N)[C@H]3O[C@H]3O[C@H](CNC(=O)[C@@H](N)CCCN=C(N)N)[C@@H](O)[C@H](O)[C@H]3NC(=O)[C@@H](N)CCCN=C(N)N)O[C@@H]2CO)[C@H](NC(=O)[C@@H](N)CCCN=C(N)N)[C@@H](O)[C@@H]1O,NL4-3,AMD3100-resistant,cytopathic effect / MTT,1.2 µM
Cc1cn([C@@H]2O[C@H](CO)C3(OS(=O)(=O)C=C3N)[C@H]2O[Si](C)(C)C(C)(C)C)c(=O)[nH]c1=O,HE,-,cytopathic effect / trypan blue,>80 µM
CC(C)C1C(=S)Nc2ccc(Cl)cc2CN1C(=O)OC(C)(C)C,-,-,cytopathic effect / MTT,7.9 µM
O=c1[nH]cnc2c1ncn2[C@H]1CC[C@@H](CO)O1,XM-Q151M,RT-A62V V75I F77C F116Y Q151M,p24,<54 µM
CC(C)C1NCc2cc(Cl)ccc2NC1=O,-,-,cytopathic effect / MTT,>1047 µM
CC1=C(C)[C@](CO)(c2ccccc2)C[C@H]1n1cnc2c(N)ncnc21,-,-,cytopathic effect,61 µg/mL
C/C=C/CN1C(=O)c2cccn2S(=O)(=O)c2ccccc21,IIIB,-,cytopathic effect / MTT,7.5 µM
Nc1ncnc2c1ncn2[C@@H]1C=C[C@@H](O)[C@H]1O,IIIB,-,cytopathic effect / trypan blue,>0.9 µg/mL
CC(C)c1nc(CN(C)C(=O)N[C@H](C(=O)N[C@@H](Cc2ccccc2)C[C@H](O)[C@H](Cc2ccccc2)NC(=O)OCc2cncs2)C(C)C)cs1,NL4-3 B,-,cytopathic effect / MTT,0.044 µM
CC(C)(C)[Si](C)(C)OC[C@H]1O[C@@H](n2ccc(=O)[nH]c2=O)[C@H](O[Si](C)(C)C(C)(C)C)C12OS(=O)(=O)C=C2N,HE,-,cytopathic effect / trypan blue,0.687 µM
Nc1nc(N)c2ncn(C[C@@H](CO)OCP(=O)(O)O)c2n1,IIIB,-,cytopathic effect / trypan blue,>125 µM
Cc1ccnc2c1NC(=O)c1cccnc1N2C1CC1,IIIB,-,MTT,0.31 µM
O=C1c2cccn2-c2ccc(Cl)cc2S(=O)(=O)N1C1CCC1,IIIB,-,cytopathic effect / MTT,7.4 µM
C[C@H](Sc1nc(N)cc(Cl)n1)c1cc2ccoc2cn1,IIIB,-,p24,<0.001 µM
c1ccc2c(c1)Cn1ccnc1-c1nnc(-c3ccncc3)n1-2,IIIB,-,cytopathic effect / MTT,>300 µM
O=C1Nc2ccc(Cl)cc2CNC1c1ccccc1,-,-,cytopathic effect / MTT,>48 µM
Cc1ccccc1CN1CCC(N=C2C=C(Cc3ccc(Cl)cc3Cl)NS(=O)(=O)N2)CC1,RES056,RT-K103N Y181C,MTT,>107 µM
CC(C)=CCN1Cc2cc(Cl)ccc2NC(=O)C1C(C)C,-,-,cytopathic effect / MTT,3.2 µM
CCCN(C)c1nc(N)nc2c1[nH]c[n+]2C[C@@H](C)OCP(=O)(O)O,IIIB,-,cytopathic effect / MTT,57.4 ± 17.8 µg/mL
O=S1(=O)c2ccccc2NCc2cccn21,IIIB,-,cytopathic effect / MTT,>129 µM
CS(=O)(=O)c1ccc(CN2CCC(N=C3C=C(Cc4cccc5ccccc45)NS(=O)(=O)N3)CC2)cc1,IIIB,-,MTT,118 µM
CCC(=CCN1Cc2cc(Cl)ccc2NC(=O)C1C)CC,-,-,cytopathic effect / MTT,2.6 µM
C[C@H](C[n+]1c[nH]c2c(NCCCC3CCCCC3)nc(N)nc21)OCP(=O)(O)O,IIIB,-,cytopathic effect / MTT,4.15 ± 3 µg/mL
Cc1cn([C@H]2C[C@H](N=[N+]=[N-])[C@@H](CO)O2)c(=O)[nH]c1=O,RF,-,cytopathic effect,0.019 µg/mL
Cc1cn([C@H]2C[C@H](N=[N+]=[N-])[C@@H](CO)O2)c(=O)[nH]c1=O,XM-Q151M,RT-A62V V75I F77C F116Y Q151M,p24,<121 µM
O=[N+]([O-])c1ccc(CN2CCC(N=C3C=C(Cc4ccc(Cl)cc4Cl)NS(=O)(=O)N3)CC2)cc1,RES056,RT-K103N Y181C,MTT,>97.06 µM
O=C1c2cccn2-c2ccc(Cl)cc2S(=O)(=O)N1C1CCCC1,IIIB,-,cytopathic effect / MTT,7.4 µM
CCCCCNc1nc(N)nc2c1[nH]c[n+]2C[C@@H](C)OCP(=O)(O)O,IIIB,-,cytopathic effect / MTT,37.4 ± 13 µg/mL
CCc1cc(NCc2nc3c(Cl)ccc(Cl)c3o2)c(=O)[nH]c1C,NL4-3,RT-K103N Y181C,p24,>3 µM
C[C@@H]1NCc2cc(Cl)ccc2NC1=O,-,-,cytopathic effect / MTT,>8.1 µM
Cc1cn([C@H]2C[C@H](N=[N+]=[N-])[C@@H](CO)O2)c(=O)[nH]c1=O,AZT-resistant Clinical isolate,-,cytopathic effect / MTT,>7 µM

For reference, 7 entries again:

| SMILES | strain or isolate | changes | read by | result |
|---|---|---|---|---|
| C[C@@H]1NCc2cc(Cl)ccc2NC1=O | - | - | cytopathic effect / MTT | >8.1 µM |
| O=C1Nc2ccc(Cl)cc2CNC1c1ccccc1 | - | - | cytopathic effect / MTT | >48 µM |
| Cc1ccnc2c1NC(=O)c1cccnc1N2C1CC1 | IIIB | - | MTT | 0.31 µM |
| Nc1nc(Nc2ccccc2)c2ncn(CCOCP(=O)(O)O)c2n1 | IIIB | - | cytopathic effect / MTT | 56.3 µg/mL |
| CCN1C(=O)C(C)N(CC=C(C)C)S(=O)(=O)c2cc(Cl)ccc21 | IIIB | - | cytopathic effect / MTT | >62 µM |
| CC1NS(=O)(=O)c2cc(Cl)ccc2NC1=O | IIIB | - | cytopathic effect / MTT | >200 µM |
| CS(=O)(=O)c1ccc(CN2CCC(N=C3C=C(Cc4cccc5ccccc45)NS(=O)(=O)N3)CC2)cc1 | IIIB | - | MTT | 118 µM |